A mixed list of measured activities; the numbers were collected in NIAID ChemDB.

Shared fields: growth or infection tests; organism: Mycobacterium tuberculosis

a–b is a range or a potency band. A number after MIC or MFC names an inhibition level or a share of isolates. MIC bound: limit read from a one-dose screen. Conditions beyond the fields shown may differ between rows. Percent inhibition refers to the dose given; in toxicity tests it is the harm to the cells. An empty or dashed field is not shown. ECn is the concentration giving n% inhibition of infection, replication or growth.

structure	strain or isolate	mutations	cells	method	setting	measure	tested at	value
COc1cc(C2c3cc4c(cc3C3OC(=O)C2C3CO)OCO4)cc(OC)c1OC	H37Rv	-	-	BACTEC	-	MIC bound	-	>12.5 µg/mL
O=C(Oc1ccc(Cl)cc1C(=O)Nc1ccc(C(F)(F)F)cc1)c1ccccc1	53/2009	-	-	broth dilution	14 d	MIC	-	0.5 µM
O=C(Nc1nc(-c2c(F)cc(F)cc2F)cs1)c1ccc([N+](=O)[O-])o1	H37Ra	-	-	-	-	inhibition	1 µM	<0%
CO[C@H]1/C=C/O[C@@]2(C)Oc3c(C)c(O)c4c(O)c(c5c(c4c3C2=O)NC2(CCN(CC(C)C)CC2)N=5)=NC(=O)/C(C)=C\C=C\[C@H](C)[C@H](O)[C@@H](C)[C@@H](O)[C@@H](C)[C@H](OC(C)=O)[C@@H]1C	30 isolates/HIV+	-	-	-	-	MIC90	-	1 µg/mL
Cc1ccc(-c2noc(C3=CC4(CCN(CC5CCCO5)CC4)c4ccccc43)n2)cn1	H37Rv	Spiroindene-resistant	-	turbidity	-	MIC	-	0.5 µM
NC(=O)c1ncsc1C(N)=O	H37Rv	-	-	BACTEC	-	MIC bound	-	>12.5 µg/mL
COc1ccc(C(=O)/C=C/c2ccc(F)cc2)cc1F	H37Rv	-	-	MTT	14 d	MIC	-	128 µg/mL
COc1c(N2C[C@@H]3CCCN[C@@H]3C2)c(F)cc2c(=O)c(C(=O)O)cn(C3CC3)c12	Strain 474	-	-	-	-	MIC	-	0.06 µg/mL
CCCCCCOc1ccccc1NC(=O)OCCN1CCCCC1	My 331/88	-	-	-	-	MIC	-	32 µM
c1ccc2oc(SCc3ccncc3)nc2c1	My 331/88	-	-	-	-	MIC	-	125 µM
O=C(Oc1ccc(Cl)cc1C(=O)Nc1ccc(Cl)c(Cl)c1)c1ccccc1	Praha 1	-	-	broth dilution	14 d	MIC	-	0.5 µM
O=C(/C=C/c1ccccc1)n1c(=O)c(=O)[nH]c2ccccc21	H37Rv	-	-	resazurin	-	MIC	-	8.928 µg/mL
COc1c(N2CC[C@@H](C(C)(C)N)C2)c(F)cc2c(=O)c3c(=O)[nH]sc3n(C3CC3)c12	Pan-susceptible clinical isolate 5	-	-	-	-	MIC	-	0.06 µg/mL
CCCCCCOc1ccc(NC(=O)OCCN2CCOCC2)cc1	My 331/88	-	-	-	-	MIC	-	16 µM
CCc1c2c(nc3ccc(OC(=O)N4CCC(N5CCCCC5)CC4)cc13)-c1cc3c(c(=O)n1C2)COC(=O)[C@]3(O)CC.Cl	H37Rv	-	-	BACTEC	-	MIC	-	≥12.5 µg/mL
Cc1ccc2nc(SCc3ccccn3)[nH]c2c1	My 331/88	-	-	-	-	MIC	-	250 µM
COc1ccc(NC(=O)OCCN(C)C)cc1	My 331/88	-	-	-	-	MIC	-	1000 µM
CN[C@@H]1[C@H](O[C@H]2[C@H](O[C@H]3[C@H](O)[C@@H](O)[C@H](N=C(N)N)[C@@H](O)[C@@H]3N=C(N)N)O[C@@H](C)[C@]2(O)C=O)O[C@@H](CO)[C@H](O)[C@H]1O	TB375	Spiroindene-resistant	-	turbidity	-	MIC	-	1 µM
c1cncc(CSc2nc3ccccc3o2)c1	My 331/88	-	-	-	-	MIC	-	125 µM
O=C(Oc1cc(Cl)ccc1C(=O)Nc1cccc(Cl)c1)c1ccccc1	331/88 (H37Rv)	-	-	broth dilution	21 d	MIC	-	4 µM
CCCCCCCOc1cccc(NC(=O)OCCN2CCOCC2)c1	My 331/88	-	-	-	-	MIC	-	16 µM
COc1c(N2CCNC(C)C2)c(F)cc2c(=O)c(C(=O)O)cn(C3CC3)c12	Strain 5	-	-	-	-	MIC	-	0.125 µg/mL
O=C(Nc1cccc(F)c1)c1cc(Cl)ccc1O	331/88 (H37Rv)	-	-	broth dilution	14 d	MIC	-	8 µM
CCn1c2cc(C)c(C)cc2nc2cc3c(cc21)c(Cl)c(=O)c1ccccc13	H37Rv	-	VERO	-	-	MIC	-	3.13 µg/mL
CC(C)(C)c1ccc(CN2CCC3(CC2)C(=O)Nc2ccccc23)cc1	TB333	-	-	turbidity	-	MIC	-	1.6 µM
N/C(=N\N=C\c1ccccc1Br)c1ccncc1	H37Rv	-	-	-	-	MIC	-	8 µg/mL
CSc1ncnc2c1cnn2Cc1cn(COC[C@@H](O)CO)nn1	H37Rv	-	-	BACTEC	-	inhibition	12.5 µg/mL	0%
O=C(Oc1ccc(Br)cc1C(=O)Nc1ccc(C(F)(F)F)cc1)c1ccccc1	Praha 131	-	-	broth dilution	21 d	MIC	-	1 µM
CCN(CC)CCNc1ccc(C)c2sc3ccc(N)cc3c(=O)c12	H37Rv	-	-	BACTEC	-	MIC bound	-	≤12.5 µg/mL
CC(O)C1C(=O)N2C(C(=O)O)C=C(SC3CN(C4=NCCC4)C3)C12	-	-	-	broth dilution / visual reading	-	MIC90	-	1.25–2.5 µg/mL
CCOc1ccc(NC(=O)OCCN(C)C)cc1	My 331/88	-	-	-	-	MIC	-	1000 µM
O=C(O)c1c(Cl)c(Cl)c(Cl)c(Cl)c1-c1c2ccc(=O)cc-2oc2cc(O)ccc12	H37Rv	-	-	BACTEC	-	inhibition	12.5 µg/mL	6%
COc1ccc(C(=O)Nc2cccc(-c3csc(NC(=O)c4ccc([N+](=O)[O-])o4)n3)c2)cc1	H37Ra	-	-	-	-	inhibition	1 µM	<0%
OC[C@H](O)COCn1ncc2c(NCc3ccccc3)ncnc21	H37Rv	-	-	BACTEC	-	EC50	-	>12.5 µg/mL
COC(=O)[C@H]1[C@H](O)[C@@H](C)[C@@H](O)[C@](C)(O)/C=C(\C)C2=C3C(=C(C)C(=O)c4c(O)c(c(C)c(OC(C)=O)c43)NC(=O)/C(C)=C/C=C\[C@@H](C)C(O)[C@@H](C)[C@H]1O)OCO2	INH-r	-	-	-	-	MIC	-	0.8 µg/mL
c1ccc2c(CSc3nc4ccccc4o3)cccc2c1	My 331/88	-	-	-	-	MIC	-	>125 µM
O=C(NN1C(=O)CSC1c1ccc(F)cc1)c1ccncc1	16PI	-	-	-	-	MIC	-	5 µg/mL
COc1ccc(-c2csc(NC(=O)c3ccc([N+](=O)[O-])o3)n2)cc1	H37Ra	-	-	-	-	inhibition	1 µM	<0%
N/C(=N\N=C\c1ccc(Cl)cc1)c1ccncc1	H37Rv	-	-	-	-	MIC	-	4 µg/mL
CCCCCCCCCCC[C@@H]1CCC[C@H](C)N1	H37Rv	-	-	BACTEC	-	inhibition	12.5 µg/mL	94%
O=C(/C=C/c1ccc(F)cc1)c1ccc(F)cc1	H37Rv	-	-	MTT	-	MIC	-	32 µg/mL
CCOc1cccc(NC(=O)OCC[NH+]2CCCC2)c1	My 331/88	-	-	-	-	MIC	-	1000 µM
c1ccc(CSc2nc3ccccc3o2)nc1	My 331/88	-	-	-	-	MIC	-	32 µM
C=C(C)[C@@H]1CC[C@]2(C)CC[C@]3(C)C(CCC4[C@@]5(C)CCC(OC(=O)/C=C/c6ccc(OC)c(O)c6)C(C)(C)C5CC[C@]43C)C12	H37Rv ATCC 27294 (drug-susceptible)	-	-	-	-	MIC	-	>100 µg/mL
O=C(/C=C/c1ccc(F)cc1)c1ccc(O)cc1	H37Rv	-	-	MTT	7 d	MIC	-	32 µg/mL
Cc1cc(=O)oc2c3c(c4c(c12)OC(C)(C)C=C4)OC(C)(C)C=C3	H37Rv	-	-	BACTEC	-	MIC bound	-	>12.5 µg/mL
O=C(N/N=C/c1ccc(F)cc1)c1ccncc1	14PI	-	-	-	-	MIC	-	>5 µg/mL
COc1ccc2c(c1)[n+]([O-])c(C(N)=O)c(N)[n+]2[O-]	PAS-R	-	-	-	-	MIC	-	3.1 µg/mL
CC(C)(C)c1ccc(CN2CCC3(CC2)C(=O)N(CC2CC2)c2ccccc23)cc1	H37Rv	-	-	turbidity	-	MIC	-	0.8 µM
CC#CC#C/C=C1\C=CC2(OC=CC2OC(C)=O)O1	H37Rv	-	-	BACTEC	-	MIC	-	≥12.5 µg/mL
COc1ccc(-c2noc(C3=CC4(CCN(CC5CCCO5)CC4)c4ccccc43)n2)cc1	TB366	Spiroindene-resistant	-	turbidity	-	MIC	-	3 µM
COc1ccc(/C=C2\C(=O)N(C)C(=O)c3cc(OC)c(OC)cc32)cc1OC	H37Rv	-	-	resazurin	-	inhibition	6.25 µg/mL	15%
CC1=NNC(=O)C1Cn1c(=O)c(=O)[nH]c2ccccc21	H37Rv	-	-	resazurin	-	MIC	-	8.012 µg/mL
CC[C@H]1OC(=O)[C@H](C)[C@@H](O[C@H]2C[C@@](C)(OC)[C@@H](O)[C@H](C)O2)[C@H](C)[C@@H](O[C@@H]2O[C@H](C)C[C@H](N(C)C)[C@H]2O)[C@](C)(OC)C[C@@H](C)C(=O)[C@H](C)[C@@H](O)[C@]1(C)O	Isolate 33	-	-	-	-	MIC	-	0.5 µg/mL
c1ccc(CSc2ncn[nH]2)nc1	My 331/88	-	-	-	-	MIC	-	>1000 µM
O=C(/C=C/c1ccccc1)c1ccc(F)cc1	H37Rv	-	-	MTT	21 d	MIC	-	32 µg/mL
NC(=O)c1cc(C(=O)c2ccccc2O)c[nH]c1=O	H37Rv	-	-	BACTEC	-	inhibition	12.5 µg/mL	-5%
O=C(NN1C(=O)CS(=O)(=O)C1c1ccccc1F)c1ccncc1	14PI	-	-	-	-	MIC	-	>5 µg/mL
Cc1c(C)c2c(c3c1Oc1cccc(O)c1C=C3)C=CC(C)(C)O2	H37Ra	-	-	-	-	MIC	-	6.25 µg/mL
c1ccc(CSc2nc3ccccc3s2)nc1	My 331/88	-	-	-	-	MIC	-	250 µM
C[C@@H](O)[C@H]1C(=O)N2C(C(=O)O)=C(S[C@@H]3CN[C@H](CNS(N)(=O)=O)C3)[C@H](C)[C@H]12	-	-	-	broth dilution / visual reading	-	MIC90	-	2.5–5 µg/mL
S=C(S)N1CCCCCC1	H37Rv	-	-	resazurin	-	inhibition	6.25 µg/mL	100%
O=c1[nH]c2ccccc2n(Cn2nnc3ccccc32)c1=O	H37Rv	-	-	resazurin	-	MIC	-	10.8 µg/mL
N/C(=N\N=C\c1cccc(Br)c1)c1ccncc1	Isolate 1751 ofloxacin-resistant	-	-	-	-	MIC	-	16 µg/mL
CC[C@@H](CO)NCCN[C@@H](CC)CO	Beijing (E-47/94)	Drug-resistant	-	resazurin	-	MIC	-	1.2 µM
CCOC(=O)C(NC(=O)c1cccc(Cl)c1)(N1CCN(c2cc3c(cc2F)c(=O)c(C(=O)O)cn3C2CC2)CC1)C(F)(F)F	H37Rv	-	-	resazurin	-	inhibition	6.25 µg/mL	99%
c1ccc(CSc2nc3ccccc3[nH]2)nc1	My 331/88	-	-	-	-	MIC	-	500 µM
OC1C(O)C2OC(c3ccccc3)OC2C2OC(c3ccccc3)OC12	H37Rv	-	-	BACTEC	-	MIC bound	-	>12.5 µg/mL
CSc1ncnc2c1cnn2COC[C@@H](O)CO	H37Rv	-	-	BACTEC	-	inhibition	12.5 µg/mL	0%
COc1ccc(NC(=O)OCC[NH+]2CCCC2)cc1	My 331/88	-	-	-	-	MIC	-	1000 µM
C#CCn1ncc2c(Cc3ccccc3)ncnc21	H37Rv	-	-	BACTEC	-	EC50	-	<12.5 µg/mL
CC(C)CCC(=O)c1ccoc1	H37Rv	-	-	BACTEC	-	MIC bound	-	>12.5 µg/mL
NC(=O)c1cnccn1	W296	-	-	-	-	MIC	-	>2048 µg/mL
COc1ccccc1/C=N/N=C(\N)c1ccncc1	H37Rv	-	-	-	-	MIC	-	4 µg/mL
Cc1cc2cc3c(C)cc(=O)oc3c(C)c2o1	H37Rv	-	-	BACTEC	-	MIC	-	≥12.8 µg/mL
Cc1ccc(C(=O)/C=C/c2ccccc2)cc1	H37Rv	-	-	resazurin	21 d	MIC	-	32 µg/mL
O=C(O)c1cn(C2CC2)c2cc(N3CCNCC3)c(F)cc2c1=O	30 isolates/HIV+	-	-	-	-	MIC90	-	8 µg/mL
CCCCCCCCCCCCCCCCS(=O)(=O)Nc1cc(C(=O)NN)cc(C(=O)NN)c1	H37Rv	-	-	BACTEC	-	MIC	-	≥12.8 µg/mL
COc1cccc(/C=C/C(=O)c2ccc(F)cc2)c1F	H37Rv	-	-	resazurin	7 d	MIC	-	16 µg/mL
O=C(Oc1ccc(Cl)cc1C(=O)Nc1ccc(Br)cc1)c1ccccc1	331/88 (H37Rv)	-	-	broth dilution	14 d	MIC	-	2 µM
CC(=O)NC[C@H]1CN(c2ccc3c(c2)Oc2ccccc2O3)C(=O)O1	-	-	-	broth dilution / visual reading	-	MIC90	-	0.5–1 µg/mL
O=C(/C=C/c1c(F)cccc1Cl)c1ccccc1	H37Rv	-	-	resazurin	21 d	MIC	-	16 µg/mL
COc1ncnc2c1cnn2Cc1cn(COC[C@@H](O)CO)nn1	H37Rv	-	-	BACTEC	-	EC50	-	>12.5 µg/mL
O=C(/C=C/c1ccccc1Cl)c1ccccc1	H37Rv	-	-	resazurin	14 d	MIC	-	32 µg/mL
CCN(CC)C(=S)[S][Sn]([S]C(=S)N(CC)CC)([c]1ccccc1)[c]1ccccc1	INH-r	-	-	-	-	MIC	-	1.6 µg/mL
CSc1ncnc2c1cnn2Cc1cnnn1COC[C@H](O)CO	H37Rv	-	-	BACTEC	-	EC50	-	>12.5 µg/mL

6 of the rows above, restated:

structure,strain or isolate,mutations,cells,method,setting,measure,tested at,value
N/C(=N\N=C\c1ccc(Cl)cc1)c1ccncc1,H37Rv,-,-,-,-,MIC,-,4 µg/mL
CC#CC#C/C=C1\C=CC2(OC=CC2OC(C)=O)O1,H37Rv,-,-,BACTEC,-,MIC,-,≥12.5 µg/mL
COc1ccc2c(c1)[n+]([O-])c(C(N)=O)c(N)[n+]2[O-],PAS-R,-,-,-,-,MIC,-,3.1 µg/mL
NC(=O)c1cnccn1,W296,-,-,-,-,MIC,-,>2048 µg/mL
O=C(/C=C/c1ccc(F)cc1)c1ccc(O)cc1,H37Rv,-,-,MTT,7 d,MIC,-,32 µg/mL
CCn1c2cc(C)c(C)cc2nc2cc3c(cc21)c(Cl)c(=O)c1ccccc13,H37Rv,-,VERO,-,-,MIC,-,3.13 µg/mL